Anti-infective test results gathered from many reports (values: NIAID ChemDB through PubChem).

Common to all: enzyme or target tests; species: HIV-1; protein: Protease; read by: fluorescence; measure: Ki

Lines come from different laboratories, so protocols vary. a–b is a range or a potency band. Blank or dashed fields: not listed here.

CC(C)(CCCNC(=O)N1CCCC1)CN(C[C@@H](O)[C@H](Cc1ccccc1)NC(=O)O[C@H]1CO[C@H]2OCC[C@H]21)S(=O)(=O)c1ccc2c(c1)OCO2 ; value: <0.001 µM
COC(=O)N[C@H](C(=O)NN(CC[C@]1(Cc2ccccc2)C(=O)N(C2c3ccccc3C[C@H]2O)C[C@@H]1O)Cc1ccc(Br)cc1)C(C)(C)C ; value: 0.0063 µM
CCC(=O)O[C@@H](C/C=C(\C)C(=O)OC)C[C@@H](OC(C)=O)[C@@H](CCCOC(=O)CC(C)C)OC(=O)CC(C)C ; value: 10 µM
CC(C)(CCCCNC(=O)c1cccs1)CN(C[C@@H](O)[C@H](Cc1ccccc1)NC(=O)O[C@H]1CO[C@H]2OCC[C@H]21)S(=O)(=O)c1ccc2c(c1)OCO2 ; value: <0.001 µM
COC(=O)N[C@H](C(=O)NN(CC[C@@]1(Cc2ccccc2)C(=O)N(C2c3ccccc3C[C@H]2O)C[C@H]1O)Cc1ccc(-c2cccnc2)cc1)C(C)(C)C ; value: 0.0063 µM
CCOC(=O)NCCCCC(C)(C)CN(C[C@@H](O)[C@H](Cc1ccccc1)NC(=O)O[C@H]1CO[C@H]2OCC[C@H]21)S(=O)(=O)c1ccc(N)cc1 ; value: <0.001 µM
COC(=O)N[C@H](C(=O)NN(CC[C@@]1(Cc2ccccc2)C(=O)N(C2c3ccccc3C[C@H]2O)C[C@@H]1O)Cc1ccc(-c2ccncc2)cc1)C(C)(C)C ; value: 0.0063 µM
Cc1ccc(S(=O)(=O)N(CC(C)C)[C@@H](CCCCNC(=O)N[C@@H]2c3ccccc3C[C@@H]2O)C(=O)O)cc1 ; value: 0.3 µM
CCOC(=O)C(C)NCc1cc2cc(S(=O)(=O)N(CC(C)C)C[C@@H](O)[C@H](Cc3ccccc3)NC(=O)O[C@H]3CO[C@H]4OCC[C@H]43)ccc2o1 ; strain or isolate: WT ; value: <0.0001 µM
CC(C)(CCCCNC(=O)CN)CN(C[C@@H](O)[C@H](Cc1ccccc1)NC(=O)O[C@H]1CO[C@H]2OCC[C@H]21)S(=O)(=O)c1ccc2c(c1)OCO2 ; value: <0.001 µM
C=CCOC[C@@H]1CC(NC(=O)[C@H](OCc2ccccc2)[C@H](O)[C@@H](O)[C@@H](OCc2ccccc2)C(=O)N[C@@H]2CO[C@H](COCC=C)C2)CO1 ; value: >5 µM
COc1ccc(S(=O)(=O)N(CC(C)C)C[C@@H](O)[C@@H]2Cc3ccc(cc3)OCCCCCc3c(O)cccc3C(=O)N2)cc1 ; value: 0.00025 µM
CCCN=C(NC#N)NCCCCC(C)(C)CN(C[C@@H](O)[C@H](Cc1ccccc1)NC(=O)O[C@H]1CO[C@H]2OCC[C@H]21)S(=O)(=O)c1ccc2c(c1)OCO2 ; value: <0.001 µM
COc1cnc(CN=Cc2c(O)[nH]c3ccc(S(=O)(=O)N(CC(C)C)C[C@@H](O)[C@H](Cc4ccccc4)NC(=O)O[C@H]4CO[C@H]5OCC[C@H]54)cc23)c(OC)c1C ; strain or isolate: WT ; value: <0.0001 µM
COC1C[C@@H](C(=O)NC(C)(C)C)N(C(=O)C(=O)C(Cc2ccccc2)NC(=O)OCc2ccccc2)C1.COC1C[C@@H](C(=O)NC(C)(C)C)N(C(=O)C(=O)C(Cc2ccccc2)NC(=O)OCc2ccccc2)C1 ; value: 0.22 µM
COC(=O)N[C@H](C(=O)NN(CCC[C@@]1(Cc2ccccc2)C(=O)N(C2c3ccccc3C[C@H]2O)C[C@H]1O)Cc1ccc(-c2cccnc2)cc1)C(C)(C)C ; value: 0.0063 µM
CC(C)N(C(=O)NCCC(C)(C)CN(C[C@@H](O)[C@H](Cc1ccccc1)NC(=O)O[C@H]1CO[C@H]2OCC[C@H]21)S(=O)(=O)c1ccc2c(c1)OCO2)C(C)C ; value: <0.001 µM
COc1cc(Br)c(C(=O)N[C@@H](Cc2cccc(Oc3ccccc3)c2)[C@@H](O)CN(CCc2ccc(Cl)cc2Cl)C(=O)CCN2C(=O)c3ccccc3C2=O)cc1OC ; value: 0.0007 µM
COc1ccc(S(=O)(=O)N(CC(C)C)C[C@@H](O)[C@H](Cc2ccccc2)NC(=O)[C@H]2CCO[C@@]3(CCCO3)C2)cc1 ; value: 0.0076 µM
CC(O)[C@@H]1CC(NC(=O)[C@H](OCc2ccccc2)[C@H](O)[C@@H](O)[C@@H](OCc2ccccc2)C(=O)N[C@H]2c3ccccc3C[C@H]2O)CO1 ; value: 0.00054 µM
O=S1(=O)N(Cc2ccccc2/C=C/c2ccccc2)C[C@H](O)[C@@H](O)CN1Cc1ccccc1Cc1ccccc1 ; value: 1.8 µM
COC(=O)N[C@H](C(=O)NN(CC[C@@]1(Cc2ccccc2)C(=O)N(C2c3ccccc3C[C@H]2O)C[C@H]1O)Cc1ccc(Br)cc1)C(C)(C)C ; value: 0.0063 µM
CC(=O)NCCCCC(C)(C)CN(C[C@@H](O)[C@H](Cc1ccccc1)NC(=O)O[C@H]1CO[C@H]2OCC[C@H]21)S(=O)(=O)c1ccc2c(c1)OCO2 ; value: <0.001 µM
O=S1(=O)N(Cc2ccccc2)C[C@H](O)[C@@H](O)CN1Cc1ccccc1-c1ccccc1 ; value: >20 µM
CC(C)(CCCCOC(=O)N1CCOCC1)CN(C[C@@H](O)[C@H](Cc1ccccc1)NC(=O)O[C@H]1CO[C@H]2OCC[C@H]21)S(=O)(=O)c1ccc2c(c1)OCO2 ; value: <0.001 µM
CCC(=O)O[C@H](C/C=C(\C)C(=O)OC)C[C@H](OC(C)=O)[C@@H](CCCOC(=O)CC(C)C)OC(=O)CC(C)C ; value: 5 µM
COc1ccc(S(=O)(=O)N(CCCCC2(C)OCCO2)C[C@@H](O)[C@H](Cc2ccccc2)NC(=O)O[C@H]2CCOC2)cc1 ; value: 0.001–0.01 µM
Cc1noc2ccc(S(=O)(=O)N(CC(C)C)C[C@@H](O)[C@H](Cc3ccccc3)NC(=O)O[C@H]3CO[C@H]4OCC[C@H]43)cc12 ; strain or isolate: WT ; value: <0.0001 µM
COc1ccc(S(=O)(=O)N(CC(C)C)C[C@@H](O)[C@H](Cc2ccccc2)NC(=O)[C@@H]2CCCC3(C2)OCCO3)cc1 ; value: 0.014 µM
CC(C)CN(C[C@@H](O)[C@H](Cc1ccccc1)NC(=O)C[C@H]1C2CO[C@H]3OCC1C3C2)S(=O)(=O)c1ccc(N)cc1 ; strain or isolate: LAI ; value: 0.00002 µM
CCOC[C@@H]1CC(NC(=O)[C@H](OCc2ccccc2)[C@H](O)[C@@H](O)[C@@H](OCc2ccccc2)C(=O)N[C@H]2c3ccccc3C[C@H]2O)CO1 ; value: 0.003 µM
CC(C)(CCNS(=O)(=O)c1ccccc1)CN(C[C@@H](O)[C@H](Cc1ccccc1)NC(=O)O[C@H]1CO[C@H]2OCC[C@H]21)S(=O)(=O)c1ccc2c(c1)OCO2 ; value: <0.001 µM
CCCCCc1c(O)cccc1C(=O)N[C@@H](Cc1ccc(O)cc1)[C@H](O)CN(CC(C)C)S(=O)(=O)c1ccc(OC)cc1 ; value: 0.00041 µM
CCOC(=O)NCCCC(C)(C)CN(C[C@@H](O)[C@H](Cc1ccccc1)NC(=O)O[C@H]1CO[C@H]2OCC[C@H]21)S(=O)(=O)c1ccc2c(c1)OCO2 ; value: <0.001 µM
COc1ccc(S(=O)(=O)N(CC(C)C)C[C@@H](O)[C@H](Cc2ccccc2)NC(=O)C2CCOC3(CCCC3)C2)cc1 ; value: 0.016 µM
CCCNC(=S)NCCCCC(C)(C)CN(C[C@@H](O)[C@H](Cc1ccccc1)NC(=O)O[C@H]1CO[C@H]2OCC[C@H]21)S(=O)(=O)c1ccc2c(c1)OCO2 ; value: <0.001 µM
O=S1(=O)N(Cc2ccccc2Cc2ccccc2)C[C@H](O)[C@@H](O)CN1Cc1ccccc1-c1ccccc1 ; value: 6.3 µM
CN(C)C(=O)NCCC(C)(C)CN(C[C@@H](O)[C@H](Cc1ccccc1)NC(=O)O[C@H]1CO[C@H]2OCC[C@H]21)S(=O)(=O)c1ccc2c(c1)OCO2 ; value: <0.001 µM
COC(=O)N[C@H](C(=O)NN(CC[C@@]1(Cc2ccccc2)C(=O)N(C2c3ccccc3C[C@H]2O)C[C@@H]1O)Cc1ccc(Br)cc1)C(C)(C)C ; value: 0.0063 µM

For reference, 5 entries again:

SMILES,strain or isolate,value
O=S1(=O)N(Cc2ccccc2)C[C@H](O)[C@@H](O)CN1Cc1ccccc1-c1ccccc1,-,>20 µM
CC(C)(CCCCOC(=O)N1CCOCC1)CN(C[C@@H](O)[C@H](Cc1ccccc1)NC(=O)O[C@H]1CO[C@H]2OCC[C@H]21)S(=O)(=O)c1ccc2c(c1)OCO2,-,<0.001 µM
COc1ccc(S(=O)(=O)N(CC(C)C)C[C@@H](O)[C@H](Cc2ccccc2)NC(=O)[C@@H]2CCCC3(C2)OCCO3)cc1,-,0.014 µM
Cc1ccc(S(=O)(=O)N(CC(C)C)[C@@H](CCCCNC(=O)N[C@@H]2c3ccccc3C[C@@H]2O)C(=O)O)cc1,-,0.3 µM
CCC(=O)O[C@@H](C/C=C(\C)C(=O)OC)C[C@@H](OC(C)=O)[C@@H](CCCOC(=O)CC(C)C)OC(=O)CC(C)C,-,10 µM